Measurements published in PMC10989010, “A panel of janus kinase inhibitors identified with anti-inflammatory effects protect mice from lethal influenza virus infection” (Antimicrobial Agents and Chemotherapy, 2024).

Test system: IL-8
Experiment: U937 cell-based anti-inflammatory assay for influenza virus infection, IL-8 production (AlphaLISA)
Details: Homo sapiens, U-937, 72 h, read-out: IC50 IL-8

CC[C@@](C)(Nc1ccnc(-c2c[nH]c3ncccc23)n1)C(=O)NCC(F)(F)F [Decernotinib]
IC50: 20 nM
